Anti-infective test results gathered from many reports (values: NIAID ChemDB through PubChem).

Shared fields: growth or infection tests; agent: Mycobacterium avium; endpoint: MIC

Conditions beyond the fields shown may differ between rows. An empty or dashed field is not shown. Two numbers with a dash give a range or band.

SMILES	strain or isolate	read by	conditions	result
O=c1[nH]c2ccccc2c(=O)n1-c1ccc(Br)cc1	MY330/88			>250 µM
c1ccc2c(CSc3nc4ccccc4o3)cccc2c1	MY330/88			125 µM
NC1CCN(c2nc3c(cc2F)c(=O)c(C(=O)O)cn3-c2ccc(F)cc2F)C1	I			32 µg/mL
CCc1cc(C(N)=S)ccn1	3090-C clarithromycin-resistant			4 µg/mL
Cc1ccc(-n2c(=O)[nH]c3ccccc3c2=O)cc1	MY330/88			>500 µM
O=C(O)c1cn(C2CC2)c2c(F)c(N3CCS(=O)(=O)CC3)c(F)cc2c1=O	1915112			2–4 µg/mL
CO[C@H]1/C=C/O[C@@]2(C)Oc3c(C)c(O)c4c(=O)c(c5oc6cc(N7CCN(CC(C)C)CC7)cc(=O)c6nc5c4c3=C2O)NC(=O)/C(C)=C\C=C\[C@H](C)[C@H](O)[C@@H](C)[C@@H](O)[C@@H](C)[C@H](OC(C)=O)[C@@H]1C	3010			0.062 µg/mL
CC[C@@H]1C(=O)OC[C@@H]1Cc1cncn1C	Isolate 733 HIV-positive			>100 µg/mL
CO[C@H]1/C=C/O[C@@]2(C)Oc3c(C)c(O)c4c(O)c(c5c(c4c3C2=O)NC2(CCN(CC(C)C)CC2)N=5)=NC(=O)/C(C)=C\C=C\[C@H](C)[C@H](O)[C@@H](C)[C@@H](O)[C@@H](C)[C@H](OC(C)=O)[C@@H]1C	Isolate 91-0129			0.8 µg/mL
O=C(Nc1ccc(Cl)c(Cl)c1)c1cc(Cl)ccc1OP(=O)(OCc1ccccc1)OCc1ccccc1	MY330/88		7 d	125 µM
CC1CN(c2c(F)cc3c(=O)c(C(=O)O)cn(C4CC4)c3c2F)CC(C)N1	1915112			2–4 µg/mL
O=C(Nc1ccc(C(F)(F)F)cc1)c1cc(Br)ccc1OP(=O)(OCc1ccccc1)OCc1ccccc1	MY330/88		7 d	32 µM
CC1CN(c2c(F)c(N)c3c(=O)c(C(=O)O)cn(C4CC4)c3c2F)CCN1C	1915112			1 µg/mL
C[C@@H]1CN(c2c(F)c(N)c3c(=O)c(C(=O)O)cn(C4CC4)c3c2F)C[C@H](C)N1	PI2/8			0.03 µg/mL
Cc1ccc2nc(SCc3ccncc3)[nH]c2c1	MY330/88			250 µM
O=C(Nc1ccc(Cl)c(Cl)c1)c1cc(Cl)ccc1OP(=O)(c1ccccc1)c1ccccc1	MY330/88		14 d	32 µM
CC(C)(O)[C@H](O)COc1c2occc2cc2ccc(=O)oc12	Isolate 733 HIV-positive			200 µg/mL
CC[C@H]1OC(=O)[C@H](C)[C@@H](O[C@H]2C[C@@](C)(OC)[C@@H](O)[C@H](C)O2)[C@H](C)[C@@H](O[C@@H]2O[C@H](C)C[C@H](N(C)C)[C@H]2O)[C@](C)(O)C[C@@H](C)CN(C)[C@H](C)[C@@H](O)[C@]1(C)O	453			16 µg/mL
O=C(Nc1cccc(Cl)c1)c1ccccc1O	MY330/88			31 µM
c1ccc2c(CSc3nc4ccccc4s3)cccc2c1	MY330/88			500 µM
O=C(O)c1cn(C2CC2)c2c(F)c(N3CCNCC3)c(F)cc2c1=O	1915112			2–4 µg/mL
CCOc1c(N2CCC(C(C)(C)N)C2)c(F)cc2c(=O)c(C(=O)O)cn(C3CC3)c12	PI2/8			0.03 µg/mL
CCn1cc(C(=O)O)c(=O)c2cc(F)c(N3CCC(CO)C3)c(F)c21	1915112			16 µg/mL
Cc1ccc(-n2c(=O)[nH]c3ccccc3c2=O)cc1C	MY330/88			250 µM
O=C(O)c1cn(C2CC2)c2c(F)c(N3CCN4CCC3C4)c(F)cc2c1=O	SMD			1 µg/mL
CC[C@H]1OC(=O)[C@H](C)[C@@H](O[C@H]2C[C@@](C)(OC)[C@@H](O)[C@H](C)O2)[C@H](C)[C@@H](O[C@@H]2O[C@H](C)C[C@H](N(C)C)[C@H]2O)[C@](C)(OC)C[C@@H](C)C(=O)[C@H](C)[C@@H](O)[C@]1(C)O	3011			1 µg/mL
c1ccc2c(CSc3ncn[nH]3)cccc2c1	MY330/88			250 µM
CC[C@@H](CO)NCCN[C@@H](CC)CO	SMT			16 µg/mL
CCn1cc(C(=O)O)c(=O)c2cc(F)c(N3CCNCC3)cc21	PI4/44			32 µg/mL
CC[C@H]1C[C@@H]2CN3CCc4c([nH]c5ccc(OC)cc45)[C@](C(=O)OC)(C2)[C@H]13	Isolate 733 HIV-positive			50 µg/mL
O=C(Nc1ccc(Cl)cc1)c1cc(Cl)ccc1OP(=O)(Oc1ccccc1)Oc1ccccc1	MY330/88		7 d	16 µM
O=C(O)c1cn(C2CC2)c2c(F)c(N3CCS(=O)CC3)c(F)cc2c1=O	1915112			2–4 µg/mL
O=C(Nc1ccccc1)c1ccccc1OP(=O)(OCc1ccccc1)OCc1ccccc1	MY330/88		14 d	500 µM
CC1CN(c2c(F)c(N)c3c(=O)c(C(=O)O)cn(C4CC4)c3c2F)CCN1C	PI2/8			0.06 µg/mL
Nc1ccccc1C(=O)Nc1ccc(Cl)c(Cl)c1	MY330/88			>62 µM
c1ccc2oc(SCc3ccncc3)nc2c1	MY330/88			125 µM
N[C@@H]1CONC1=O	1435-C clarithromycin-resistant			16 µg/mL
CC[C@H]1OC(=O)[C@H](C)[C@@H](O[C@H]2C[C@@](C)(OC)[C@@H](O)[C@H](C)O2)[C@H](C)[C@@H](O[C@@H]2O[C@H](C)C[C@H](N(C)C)[C@H]2O)[C@](C)(OC)C[C@@H](C)C(=O)[C@H](C)[C@@H](O)[C@]1(C)O	RG2			0.12 µg/mL
NC(=S)c1cc(SCc2cccnc2)ccn1	MY330/88			>62.5 µM
CO[C@H]1/C=C/O[C@@]2(C)Oc3c(C)c(O)c4c(O)c(c(/C=N/N5CCN(C)CC5)c(O)c4c3C2=O)NC(=O)/C(C)=C\C=C\[C@H](C)[C@H](O)[C@@H](C)[C@@H](O)[C@@H](C)[C@H](OC(C)=O)[C@@H]1C	6-13			10 µg/mL
CC[C@H]1OC(=O)[C@H](C)[C@@H](O[C@H]2C[C@@](C)(OC)[C@@H](O)[C@H](C)O2)[C@H](C)[C@@H](O[C@@H]2O[C@H](C)C[C@H](N(C)C)[C@H]2O)[C@](C)(OC)C[C@@H](C)C(=O)[C@H](C)[C@@H](O)[C@]1(C)O	800	broth dilution / radiometric	pH 7.4	2 µg/mL
O=C(Nc1ccc(C(F)(F)F)cc1)c1cc(Br)ccc1OP(=O)(Oc1ccccc1)Oc1ccccc1	MY330/88		7 d	8 µM
N[C@H]1CCN(c2nc3c(cc2F)c(=O)c(C(=O)O)cn3C2CC2)C1	I			4 µg/mL
CC[C@H]1C[C@H]2C[C@H]3c4[nH]c5ccc(OC)cc5c4CCN(C2)[C@@H]13	Isolate 733 HIV-positive			100 µg/mL

A second listing of 3 rows from above:

SMILES,strain or isolate,read by,conditions,result
Nc1ccccc1C(=O)Nc1ccc(Cl)c(Cl)c1,MY330/88,,,>62 µM
Cc1ccc(-n2c(=O)[nH]c3ccccc3c2=O)cc1C,MY330/88,,,250 µM
CC[C@H]1OC(=O)[C@H](C)[C@@H](O[C@H]2C[C@@](C)(OC)[C@@H](O)[C@H](C)O2)[C@H](C)[C@@H](O[C@@H]2O[C@H](C)C[C@H](N(C)C)[C@H]2O)[C@](C)(O)C[C@@H](C)CN(C)[C@H](C)[C@@H](O)[C@]1(C)O,453,,,16 µg/mL